In patent US9205068B2 (priority 2008, dated 2015):

Tested on: exotoxin A (ETA) of Pseudomonas aeruginosa
Assay: Exotoxin A (ETA) cell toxicity
Details: single drug treatment

O=C([O-])CCCc1ccccc1.[Na+] [PBA, sodium 4-phenylbutyrate]
resistance to exotoxin A (ETA): weak drug-induced resistance
